# Assay results from paper PMC7990224 (PLoS Pathogens, 2021).
# System: SARS-CoV-2 GFP/ΔN trVLP
# Assay type: cell-based
molecule,measurement,value
"IFN-β: type I interferon (Sino Bioligical, 10704-HNAS-5) (protein, UniProt P01574 22-187, looked up) Interferon beta: MSYNLLGFLQRSSNFQCQKLLWQLNGRLEYCLKDRMNFDIPEEIKQLQQFQKEDAALTIYEMLQNIFAIFRQDSSSTGWNETIVENLLANVYHQINHLKTVLEEKLEKEDFTRGKLMSSLHLKRYYGRILHYLKAKEYSHCAWTIVRVEILRNFYFINRLTGYLRN",reduction of the GFP fluorescence,60%
